# According to the supplement of paper PMC9931576:
# Human monoclonal antibodies against the spike receptor-binding domain (heavy:light variable regions). IC50 against pseudoviruses bearing the spike of naturally observed variants; lower = stronger; >10 µg/ml means not reached at the top dose. No active / inactive call. The stated detection limit is 0.0005 µg/ml; values near or below 0.001 µg/ml lie at the floor of the assay.
# B1: BD55-6351 (protein)
# chain 1: EVQLVESGGGLVQPGGSLRLSCSASGFTFNNCAMHWVRQAPGNRLEHVSAVGSDGVVTDYADSVKGRFTISRDNSKNMLFLQMSSLKPEDTAVYYCVKDHDTTYYALFDYWGQGTLVTVSS
# chain 2: DIQMTQSPSSLSASVGDRVTITCRASQSISMYLNWYQQKPGKAPKLLIYSTSSLQSGVPSRFSGSGSGTDFTLTINSLQPEDFATYYCQQSYTTPYTFGQGTKLEIK
# B2: BD55-6328 (protein)
# chain 1: QVQLVESGRGVAQPGRSLRLSCAASGFTFSHYGMHWVRQAPGKGLEWVAVISYDGSDKYYEDSVKGRFTISRDNSKNTLYLQMNSLRAEDTAVYYCAKQMGPYCSGHNCYSGSFDYWGQGILVTVSS
# chain 2: DIQMTQSPSSLSASVGDRVTITCQASQDISNYLNWYQQKPGKAPKLLIYGASNLETGVPSRFSGSGSGTDFTFTISSLQPEDIATYYCQRYDNVPLTFGQGTRLEIK
# B3: BD55-6338 (protein)
# chain 1: EVQLVQSGAEVKKLGESLKISCKGSGYNFSRFWIGWVRQRPGKGLEWMGTIHPGHSETTYSPSVQGQVTISADKSINTAYIQWSSLKASDTAIYFCARRGSLHSSGLTEIYYFDYWGQGSLVSVSS
# chain 2: NFMLTQPHSVSGSPGETVTISCTGSGGSIASTYVQWYQQRPGSAPTTVIYEDNQRPSGVPDRFSVSIDSSSNAASLIISGLKTEDEADYYCQSSDSRTSYWVFGGGTKLTVL
# B4: BD55-1225 (protein)
# chain 1: QLQLQESGPGLVKPSETLSLTCTVSGASIRGNTYFWGWLRQPPGKGLEWIATMSYTGDSYYTPSLKSRVTISVDTSKNQFSLKLNSVTAADTAVYYCARLTWLRSPFDSWGQGSLVTVSS
# chain 2: NFMLTQPHSVSESPGKTVTISCTGSGGFIASNYVQWYQQRPGSAPIVVIYEDSQRPSGVSERFSGSVDSSSNFASLTITGLKTEDEADYYCQSYDVNMHWVFGGGTKLTVL
# B5: BD55-6355 (protein)
# chain 1: QVQLQESGPGLVKASETLSLTCNVSGSSLSSFHWSWIRQSAGKGLEWIGLIYISGSTTYNPSLKSRVSMSLDTSNKQFSLKLASVTAADTAIYYCARGYCGSTNCYGWFDPWGQGTLVTVSS
# chain 2: DIQMTQSPSTLSASVGDRVTITCRASQSISSWLAWYQQKPGKAPKLLIYKASSLESGVPSRFSGSGSGTEFTLTITSLQPDDFATYYCQQYKSYWTFGQGTKVEIK
# B6: BD55-6334 (protein)
# chain 1: QVQLVESGGGVVQPGKSLRLSCAASGFSFSDYGFHWVRQAPGKGLEWVAIVWNDGSQKYYADSVKGRFTVSRDNSKNTLYLQMNSLRAEDTAMYYCARDSLCTGGRCFFDYNWFDAWGQGTLVSVSS
# chain 2: EIVLTQSPATLSLSPGERATLSCRASQSVSTNLAWYQHKPGQAPRLLIYDASARATGISARFSGSGSGTDFTLTISSLEPEDFAVYYCQQRHTWPPAYTFGQGTKLEL
# Target: SARS-CoV-2 Omicron BA.1 spike pseudovirus
# Assay: pseudovirus neutralization IC50; higher = weaker neutralization
# Experimental: (§1)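 Single-round VSV luciferase pseudovirus mixed with antibody dilutions for 1 h and put on Huh-7 cells for about a day; IC50 from the dose curve.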
row,Binder,pseudovirus neutralization IC50
1,B1,> 10 µg/mL
2,B2,> 10 µg/mL
3,B3,> 10 µg/mL
4,B4,> 10 µg/mL
5,B5,> 10 µg/mL
6,B6,> 10 µg/mL

# Target: SARS-CoV-2 Omicron BA.2 spike pseudovirus
# Assay: as above
# Experimental: as §1
row,Binder,pseudovirus neutralization IC50
1,B1,> 10 µg/mL
2,B2,> 10 µg/mL
3,B3,> 10 µg/mL
4,B4,> 10 µg/mL
5,B5,> 10 µg/mL
6,B6,> 10 µg/mL

# Target: SARS-CoV-2 Omicron BA.2.75 spike pseudovirus
# Assay: as above
# Experimental: as §1
row,Binder,pseudovirus neutralization IC50
1,B1,> 10 µg/mL
2,B2,> 10 µg/mL
3,B3,> 10 µg/mL
4,B4,> 10 µg/mL
5,B5,> 10 µg/mL
6,B6,> 10 µg/mL

# Target: SARS-CoV-2 Omicron BA.5 spike pseudovirus
# Assay: as above
# Experimental: as §1
row,Binder,pseudovirus neutralization IC50
1,B1,> 10 µg/mL
2,B2,> 10 µg/mL
3,B3,> 10 µg/mL
4,B4,> 10 µg/mL
5,B5,> 10 µg/mL
6,B6,> 10 µg/mL

# Target: SARS-CoV-2 Omicron BQ.1.1 spike pseudovirus
# Assay: as above
# Experimental: as §1
row,Binder,pseudovirus neutralization IC50
1,B1,> 10 µg/mL
2,B2,> 10 µg/mL
3,B3,> 10 µg/mL
4,B4,> 10 µg/mL
5,B5,> 10 µg/mL
6,B6,> 10 µg/mL

# Target: SARS-CoV-2 Omicron XBB spike pseudovirus
# Assay: as above
# Experimental: as §1
row,Binder,pseudovirus neutralization IC50
1,B1,> 10 µg/mL
2,B2,> 10 µg/mL
3,B3,> 10 µg/mL
4,B4,> 10 µg/mL
5,B5,> 10 µg/mL
6,B6,> 10 µg/mL

# Target: SARS-CoV-2 early D614G spike pseudovirus
# Assay: as above
# Experimental: as §1
row,Binder,pseudovirus neutralization IC50
1,B1,> 10 µg/mL
2,B2,3.53 µg/mL
3,B3,> 10 µg/mL
4,B4,0.363 µg/mL
5,B5,> 10 µg/mL
6,B6,2.38 µg/mL
